Anti-infective test results gathered from many reports (values: NIAID ChemDB through PubChem).

All rows: growth or infection tests; species: Candida albicans; read-out: MIC

Blank or dashed fields: not listed here.

SMILES,strain or isolate,result
COc1ccc2cc3[n+](cc2c1OC)CCc1cc2c(cc1-3)OCO2,ATCC28838,125 µg/mL
CO[C@@H](n1cnc(C)c1)[C@](O)(Cn1cncn1)c1ccc(Cl)cc1,-,>100 µg/mL
Clc1ccc(CO/N=C(/Cn2ccnc2)c2ccc(Cl)cc2Cl)c(Cl)c1,-,6.25 µg/mL
CCCCCCC(Cn1ccnc1)c1ccc(F)cc1,-,100 µg/mL
CNc1ccc(C(=O)CC(O)CCC(C)C2OC(=O)CC(O)CC(=O)CC(O)CC(O)CC(O)CC(O)CC3(O)CC(O)C(C(=O)NCCN(C)C)C(CC(O[C@@H]4O[C@H](C)[C@@H](O)[C@H](NC(=O)CN5CCN(C)CC5)[C@@H]4O)/C=C/C=C/C=C/C=C\C=C/C=C/C=C/C2C)O3)cc1,200,0.03 µg/mL
O=C(NC1=Nc2ccc3ccccc3c2SC1)Oc1ccccc1,CBS 562,>100 µg/mL
O=C(Nc1ccc(-c2nc3ccccc3[nH]2)cc1)c1ccc(Cl)cc1Cl,ATCC 10231,25 µg/mL
CCCCCCCCCCCC[N+](C)(C)COCCCC,ATCC 10231,74 µM
C=C1/C=C(\C)[C@H](CC)OC(=O)[C@H](C)C(=O)C(O)(CO)C/C(C)=C/[C@@H](C)C1,MY1005,>200 µg/mL
CC1CC(NOC(=O)c2ccccc2)=Nc2ccccc2S1,CBS 562,>100 µg/mL
CCCCCCCC(Cn1ccnc1)c1ccccc1Cl,-,100 µg/mL
NC(=NC1CCCC1)c1ccc(-c2ccc(-c3ccc(C(N)=NC4CCCC4)cc3)o2)cc1,Isolate 3028 fluconazole-resistant,12.5 µg/mL
Cn1c(-c2cccc(NC(=O)CSc3ccccc3)c2)nc2ccccc21,ATCC 10231,25 µg/mL
Cc1ccc2oc(-c3ccccc3F)nc2c1,-,12.5 µg/mL
CCCCCCCCCCCC[N+](C)(C)COCC(C)CCC,ATCC 10231,27.5 µM
CCCCCCCC(Cn1ccnc1)c1ccccc1Br,-,>100 µg/mL
CNc1ccc(C(=O)CC(O)CCC(C)C2OC(=O)CC(O)CC(=O)CC(O)CC(O)CC(O)CC(O)CC3(O)CC(O)C(C(=O)N4CCCCC4)C(CC(O[C@@H]4O[C@H](C)[C@@H](O)[C@H](N)[C@@H]4O)/C=C/C=C/C=C/C=C\C=C/C=C/C=C/C2C)O3)cc1,200,0.03 µg/mL
CCCCCCC(Cn1ccnc1)c1ccccc1Cl,-,10 µg/mL
CCCCCCCCCCCC[N+](C)(C)COC(C)CCCCCC,ATCC 10231,25.5 µM
CO[C@@H](n1cccn1)[C@@](O)(Cn1ccnc1)c1ccc(F)cc1,-,>100 µg/mL
O=C(NNC(=S)Nc1ccccc1)c1ccncc1,ATCC 10231,50 µg/mL
CNc1ccc(C(=O)CC(O)CCC(C)C2OC(=O)CC(O)CC(=O)CC(O)CC(O)CC(O)CC(O)CC3(O)CC(O)C(C(=O)N4CCN(C)CC4)C(CC(O[C@@H]4O[C@H](C)[C@@H](O)[C@H](NC(=O)CN5CCN(C)CC5)[C@@H]4O)/C=C/C=C/C=C/C=C\C=C/C=C/C=C/C2C)O3)cc1,73,0.015 µg/mL
Cc1ccc2nc(-c3ccccc3[N+](=O)[O-])oc2c1,-,25 µg/mL
CCCCCCCCCCCC[N+](C)(C)COCCCCCCCCC,ATCC 10231,62 µM
CCn1c(-c2ccncc2)n[nH]c1=S,ATCC 10231,50 µg/mL
ONC1=Nc2cc(Cl)ccc2SC1,CBS 562,>100 µg/mL
CCCCCCC(Cn1ccnc1)c1ccc(Br)cc1,-,10 µg/mL
COc1cc2c(cc1OC)-c1cc3ccc(OC)c(OC)c3c[n+]1CC2,ATCC11651,>500 µg/mL
O=C(Nc1ccc(-c2nc3ccccc3[nH]2)cc1)c1ccco1,ATCC 10231,25 µg/mL
CCCCCCCCCCCC[N+](C)(C)CSCCC,ATCC 10231,296 µM
COc1ccc(-c2nc3cc(C)ccc3o2)c(OC)c1,-,25 µg/mL
CCCCCCSc1ccnc(C(N)=S)c1,ATCC 44859,>500 µM
CCCCCC(Cn1ccnc1)c1ccccc1Br,-,10 µg/mL
CO[C@@H](n1ccnc1C)[C@](O)(Cn1cncn1)c1ccc(Cl)cc1,-,>100 µg/mL
O=C(Nc1ccc(-c2nc3ccccc3[nH]2)cc1)c1ccc(Cl)cc1,ATCC 10231,25 µg/mL
CC[C@@H]1OC(=O)[C@H](C)C(=O)C(O)(CO)C/C(Cl)=C/[C@@H](C)Cc2cccc1c2,ATCC 90028,>64 µg/mL
CO[C@@H](n1cncn1)[C@](O)(Cn1cncn1)c1ccccc1F,-,>100 µg/mL
CC(C)CSc1ccnc(C(N)=S)c1,ATCC 44859,>500 µM
CNc1ccc(C(=O)CC(O)CCC(C)C2OC(=O)CC(O)CC(=O)CC(O)CC(O)CC(O)CC(O)CC3(O)CC(O)C(C(=O)N4CCN(CCO)CC4)C(CC(O[C@@H]4O[C@H](C)[C@@H](O)[C@H](NC(=O)CN5CCN(C)CC5)[C@@H]4O)/C=C/C=C/C=C/C=C\C=C/C=C/C=C/C2C)O3)cc1,200,0.06 µg/mL
CCCCCCCCCCCC[N+](C)(C)COCCC,ATCC 10231,155 µM
CCn1c(SCC(=O)c2ccccc2)nnc1-c1ccncc1,ATCC 10231,25 µg/mL
CC(=O)ONC1=Nc2cc(Cl)ccc2SC1,CBS 562,25 µg/mL
CCCCCCCCCCCC[N+](C)(C)CSCCCCC,ATCC 10231,27.3 µM
CCCCCC(Cn1ccnc1)c1ccc(F)cc1,-,100 µg/mL
CCCCCCCCCCCCSc1ccnc(C(N)=S)c1,ATCC 44859,>500 µM
COc1cc(NC(C)CCCN)c2nc(C(C)(C)C)cc(C)c2c1Oc1cccc(C(F)(F)F)c1,-,20 µg/mL
CCCCCCCCCCCC[N+](C)(C)COCC(CC)CCC,ATCC 10231,12.8 µM
COc1ccc(C[C@H](N)C(=O)N[C@H]2[C@@H](O)[C@H](n3cnc4c(N)ncnc43)O[C@@H]2C(=O)O)cc1,FP-616,0.2 µg/mL

The first 7 rows once more:

SMILES,strain or isolate,result
COc1ccc2cc3[n+](cc2c1OC)CCc1cc2c(cc1-3)OCO2,ATCC28838,125 µg/mL
CO[C@@H](n1cnc(C)c1)[C@](O)(Cn1cncn1)c1ccc(Cl)cc1,-,>100 µg/mL
Clc1ccc(CO/N=C(/Cn2ccnc2)c2ccc(Cl)cc2Cl)c(Cl)c1,-,6.25 µg/mL
CCCCCCC(Cn1ccnc1)c1ccc(F)cc1,-,100 µg/mL
CNc1ccc(C(=O)CC(O)CCC(C)C2OC(=O)CC(O)CC(=O)CC(O)CC(O)CC(O)CC(O)CC3(O)CC(O)C(C(=O)NCCN(C)C)C(CC(O[C@@H]4O[C@H](C)[C@@H](O)[C@H](NC(=O)CN5CCN(C)CC5)[C@@H]4O)/C=C/C=C/C=C/C=C\C=C/C=C/C=C/C2C)O3)cc1,200,0.03 µg/mL
O=C(NC1=Nc2ccc3ccccc3c2SC1)Oc1ccccc1,CBS 562,>100 µg/mL
O=C(Nc1ccc(-c2nc3ccccc3[nH]2)cc1)c1ccc(Cl)cc1Cl,ATCC 10231,25 µg/mL

Rows are shuffled and stem from different studies.